# Measurements from publication PMC7104723 (Cell Research, 2020).
# Chains of the proteins cited; added tags and fusions are not shown. Residues count along the entry.
# UniProt K9N5Q8, 994-1044 limits assumed: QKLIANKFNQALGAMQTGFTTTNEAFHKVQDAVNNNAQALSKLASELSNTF
# Key:
# MERS-HR1 = MERS-HR1 (Middle East respiratory syndrome-related coronavirus, UniProt K9N5Q8); test: Circular dichroism thermal denaturation of peptide/MERS-HR1 complex; details: CD, 10 μM in PBS, thermal denaturation at 222 nm, 5 °C/min (Fig. S4)
# SARS-HR1 = SARS-HR1 (Severe acute respiratory syndrome coronavirus, UniProt P59594); test: Circular dichroism thermal denaturation of peptide/SARS-HR1 complex; details: CD, 10 μM in PBS, thermal denaturation at 222 nm, 5 °C/min (Fig. S4)
smiles,measurement,setting,value
CC[C@H](C)[C@H](NC(=O)[C@H](C)NC(=O)[C@H](CCC(=O)O)NC(=O)[C@H](CCC(=O)O)NC(=O)[C@H](CC(C)C)NC(=O)[C@H](CCCCN)NC(=O)[C@H](CCCCN)NC(=O)[C@H](CCSC)NC(=O)[C@H](CCC(=O)O)NC(=O)[C@H](Cc1ccc(O)cc1)NC(=O)[C@H](CCC(=O)O)NC(=O)[C@H](CC(C)C)NC(=O)[C@H](CC(=O)O)NC(=O)[C@H](CC(C)C)NC(=O)[C@H](Cc1ccccc1)NC(=O)[C@@H](NC(=O)[C@@H](NC(=O)[C@H](CC(N)=O)NC(=O)[C@@H](NC(=O)[C@H](CCC(N)=O)NC(=O)[C@H](CC(=O)O)NC(=O)[C@H](CC(C)C)NC(=O)[C@@H](N)CO)[C@@H](C)CC)C(C)C)[C@@H](C)O)C(=O)N[C@@H](CCCCN)C(=O)N[C@@H](CCCCN)C(=O)N[C@@H](CC(C)C)C(=O)N[C@@H](CCC(=O)O)C(=O)N[C@@H](CCC(=O)O)C(=O)N[C@@H](CO)C(=O)N[C@@H](Cc1ccc(O)cc1)C(=O)N[C@H](C(=O)N[C@@H](CC(=O)O)C(=O)N[C@@H](CC(C)C)C(=O)N[C@@H](CCCCN)C(=O)N[C@@H](CCC(=O)O)C(=O)N[C@@H](CC(C)C)C(=O)NCC(=O)N[C@@H](CO)C(=O)NCC(=O)N[C@@H](CO)C(=O)NCC(=O)NCCOCCOCCOCCOCCC(=O)N[C@@H](CSCC(=O)O[C@H]1CC[C@@]2(C)C(=CC[C@H]3[C@@H]4CC[C@H]([C@H](C)CCCC(C)C)[C@@]4(C)CC[C@@H]32)C1)C(N)=O)[C@@H](C)CC [EK1C4],Stability and Tm of complex with MERS-HR1 compared with EK1 complex,MERS-HR1,higher stability and increased Tm values
same,Stability and Tm of complex with SARS-HR1 compared with EK1 complex,SARS-HR1,higher stability and increased Tm values
